Data as given in PubChem BioAssay AID1251 (SRMLSC, 2008).
The list shows a part of the results, in another mix than the full data. Active and inactive are the calls of the source. Cut-off read from the data, not from the text of the source: active = inhibition above about 30%; inactive = the rest, inconclusive results apart.

assay: antivirals against arbovirus infection, primary screen, cell-based, full library, 10K replicate subset (AID 1251); conditions: arbovirus infection cell-based antiviral screen; at 10 µM; active compounds read high

**Q.** Which inhibition does the source give for `CCOP1(=S)c2c(C)nn(CCC#N)c2N=C(c2ccccc2F)N1C` (stereo not drawn) here?
**A.** Its inhibition is inactive: -8.59%.

**Q.** For `O=P(Nc1nccs1)(Oc1ccccc1)Oc1ccccc1`, which inhibition is on record?
**A.** Its inhibition is inactive: 5.54%.

**Q.** With `O=P(Nc1nccs1)(c1ccccc1)c1nc2ccccc2s1` (stereo not drawn) as the compound, how does the inhibition read?
**A.** The inhibition was inactive: 0.43%.

**Q.** With `O=c1c2cc([N+](=O)[O-])ccc2[nH]c2c([N+](=O)[O-])cc([N+](=O)[O-])cc12` as the compound, how does the inhibition read?
**A.** Its inhibition is inactive: -38.4%.

**Q.** With `CP(=O)(Nc1ccccc1)Oc1ccc(F)cc1` (stereo not drawn) as the compound, how does the inhibition read?
**A.** The inhibition was inactive: 15.2%.

**Q.** With `CCN(CC)CCCOC(=O)C(O)(c1ccccc1)C1CCCCC1` (stereo not drawn) as the compound, how does the inhibition read?
**A.** Its inhibition is inactive: -17.2%.

**Q.** For `CCC(=O)N1C2C3N(C(=O)CC)C1C1N(C(=O)CC)C(C(N1C(=O)CC)N3C(=O)CC)N2C(=O)CC`, which inhibition is on record?
**A.** The inhibition was inactive: 0.74%.

**Q.** Which inhibition does the source give for `COC(=O)c1cc2c(s1)N=C(c1ccccc1)N(C)P2(=O)N1CCOCC1` (stereo not drawn) here?
**A.** The inhibition was inactive: 3%.

**Q.** Which inhibition does the source give for `CC(=O)NC(SC(=S)N(CC(C)C)CC(C)C)C(Cl)(Cl)Cl` (stereo not drawn) here?
**A.** The inhibition was inactive: -6.39%.

**Q.** With `Cc1ccc(OP(=O)(Nc2ccccn2)Oc2ccc(C)cc2)cc1` as the compound, how does the inhibition read?
**A.** Its inhibition is inactive: 11.7%.

**Q.** Which inhibition does the source give for `COc1ccc(OP(C)(=O)Nc2ccc(SC(F)(F)F)cc2)cc1` (stereo not drawn) here?
**A.** The inhibition was inactive: -4.24%.

**Q.** With `CCOC(=O)c1ccc(NP(C)(=O)Oc2ccc(F)cc2)cc1` (stereo not drawn) as the compound, how does the inhibition read?
**A.** The inhibition was inactive: -0.26%.

**Q.** For `c1ccc(-c2nn[nH]n2)c(-c2nn[nH]n2)c1`, which inhibition is on record?
**A.** Its inhibition is inactive: 2.89%.

**Q.** Which inhibition does the source give for `CCOC(=O)NC(Sc1ccccc1)C(Cl)(Cl)Cl` (stereo not drawn) here?
**A.** Its inhibition is inactive: -1.93%.

**Q.** For `CCNC(=S)/N=C(\N)N[N+](=O)[O-]`, which inhibition is on record?
**A.** The inhibition was inactive: 1.72%.

**Q.** Which inhibition does the source give for `CC(=O)Nc1ccc(Oc2c([N+](=O)[O-])cc([N+](=O)[O-])cc2[N+](=O)[O-])cc1` here?
**A.** Its inhibition is inactive: 6.32%.

**Q.** Which inhibition does the source give for `O=C(OCCN1CCN(CCOCc2ccccc2)CC1)C(O)(c1ccccc1)c1ccccc1` here?
**A.** Its inhibition is inactive: -3.55%.

**Q.** For `CC(C)(C)C(=O)NC(Sc1ccccc1)C(Cl)(Cl)Cl` (stereo not drawn), which inhibition is on record?
**A.** The inhibition was inactive: 7.94%.

**Q.** For `CC(C)c1ccc(OP(C)(=O)Nc2ccc(SC(F)(F)F)cc2)cc1` (stereo not drawn), which inhibition is on record?
**A.** The inhibition was inactive: -9.16%.

**Q.** Which inhibition does the source give for `CP(=O)(Nc1ccccc1F)Oc1ccccc1` (stereo not drawn) here?
**A.** Its inhibition is inactive: 7.19%.

**Q.** For `O=P1(Nc2nc3ccc(Cl)cc3s2)COc2ccccc2O1` (stereo not drawn), which inhibition is on record?
**A.** The inhibition was inactive: 3.32%.

**Q.** With `CCOc1ccc(C2=NCC(CBr)S2)cc1` (stereo not drawn) as the compound, how does the inhibition read?
**A.** Its inhibition is inactive: -4.83%.

**Q.** With `Cc1ccccc1NP(C)(=O)Nc1ccccc1C` as the compound, how does the inhibition read?
**A.** Its inhibition is inactive: 1.69%.

**Q.** For `CP(=O)(Nc1ccc2c(c1)OCCO2)Oc1ccccc1` (stereo not drawn), which inhibition is on record?
**A.** Its inhibition is inactive: -0.82%.

**Q.** For `c1nnnn1CCn1cnnn1`, which inhibition is on record?
**A.** The inhibition was inactive: -2.02%.

**Q.** For `CCOP(C)(=S)SCC(=O)NC(C)(CC)C(=O)O` (stereo not drawn), which inhibition is on record?
**A.** Its inhibition is inactive: -4.96%.

**Q.** With `CC(C)C(=O)NC(Sc1ccccc1)C(Cl)(Cl)Cl` (stereo not drawn) as the compound, how does the inhibition read?
**A.** The inhibition was inactive: -6.15%.

**Q.** With `O=P(Nc1nccs1)(c1ccccc1)c1ccccc1` as the compound, how does the inhibition read?
**A.** Its inhibition is inactive: -2.22%.
